PubChem BioAssay AID504761 | Drosophila RNAi Screening Center – 2011

Screen: 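Insect host genes that dengue virus relies on to spread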 (primary screen)
Cells: D.Mel-2 cells from Drosophila
Reagents: long dsRNA against Drosophila genes
Conditions: infection with dengue virus type 2; dose and infection time not stated
Read-out: 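Per well on two replicate plates, imaging gave the percent of cells positive for viral envelope protein, ranked by infection, and a nuclear count of cells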
Reading the numbers: infection score: higher = more virus-infected cells; cell count: higher = more cells in the well
Rule for the call: 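Very low infection ranking in both replicate wells (chance probability at most 0.065), then a retest showing infection dropped 1.5-fold or more at p below 0.05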
Calls: active = confirmed: knock-down lowers infection; inactive = not picked or not confirmed
The screen tested about 22,000 reagents; below is a random part of those that have a named target and a result. In the full data, 116 (0.52%) are marked active. 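Calls depend on retest data that are not deposited; infection was ranked per plate without normalising between plates; the unit of the infection score is not given.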 The raw values are shown without normalisation. A number with no mark means an inactive call. No sequences are given here. Not given: the amount of reagent, the time to read-out.

For CG34205 (GeneID 37526) [DRSC04149], what does the deposit list?
infection score, replicate 1: 32.1; infection score, replicate 2: 16.6; cell count, replicate 1: 5725; cell count, replicate 2: 4646

Which result is listed for CG34205 (GeneID 37526) [DRSC22823]?
infection score, replicate 1: 1.07; infection score, replicate 2: 3.2; cell count, replicate 1: 6100; cell count, replicate 2: 6440

How did the screen score wb (GeneID 43946) [DRSC01375]?
infection score, replicate 1: 2.88; infection score, replicate 2: 2.88; cell count, replicate 1: 4832; cell count, replicate 2: 4335

What is on record for wb (GeneID 43946) [DRSC03634]?
infection score, replicate 2: 11.3; cell count, replicate 1: 472; cell count, replicate 2: 1101

For wb (GeneID 43946) [DRSC23003], what does the deposit list?
infection score, replicate 1: 2.15; infection score, replicate 2: 1.22; cell count, replicate 1: 5714; cell count, replicate 2: 6313

Ordered by “infection score, replicate 2” (low to high): 2 of the entries above.
CG34205 (GeneID 37526) [DRSC22823] → infection score, replicate 1: 1.07; infection score, replicate 2: 3.2; cell count, replicate 1: 6100; cell count, replicate 2: 6440
CG34205 (GeneID 37526) [DRSC04149] → infection score, replicate 1: 32.1; infection score, replicate 2: 16.6; cell count, replicate 1: 5725; cell count, replicate 2: 4646

Additional records follow:
Which result is listed for Ebp (GeneID 38009) [DRSC04048]?
infection score, replicate 1: 35.6; infection score, replicate 2: 16.5; cell count, replicate 1: 5657; cell count, replicate 2: 5875

Which result is listed for Ebp (GeneID 38009) [DRSC27342]?
infection score, replicate 1: 15.5; infection score, replicate 2: 20.3; cell count, replicate 1: 6547; cell count, replicate 2: 5619

What is on record for CG10469 (GeneID 38696) [DRSC09729]?
infection score, replicate 1: 2.3; infection score, replicate 2: 5.88; cell count, replicate 1: 5870; cell count, replicate 2: 4913

With CG10469 (GeneID 38696) [DRSC25644], what does the deposit list?
infection score, replicate 1: 2.24; infection score, replicate 2: 3.81; cell count, replicate 1: 5978; cell count, replicate 2: 6005

What is on record for Zasp52 (GeneID 36740) [DRSC06269]?
infection score, replicate 1: 8.96; infection score, replicate 2: 17.7; cell count, replicate 1: 6151; cell count, replicate 2: 5943

What is on record for Zasp52 (GeneID 36740) [DRSC07121]?
infection score, replicate 1: 7.72; infection score, replicate 2: 11.9; cell count, replicate 1: 7216; cell count, replicate 2: 6308

How did the screen score eff (GeneID 41785) [DRSC16940]?
infection score, replicate 1: 19.4; infection score, replicate 2: 14.4; cell count, replicate 1: 6037; cell count, replicate 2: 5750
